# Source: US7407783B2, “Fructosylamine oxidase” (priority 2002, dated 2008)
# Target: FAO-Q1 (Fusarium proliferatum, UniProt A0A1L7VP54)
# Experiment: Substrate specificity of FAO-Q1 (FAO activity, rate method, H2O2 colorimetry)
# Assay type: biochemical
# Method: Titration of enzyme can be performed by a method known in the art (e.g., kinetic method), for example, that described in Example 1 (3). In this method, hydrogen peroxide generated by the reaction of an FAO with a glycated amino acid or peptide is measured on the basis of absorbance (505 nm) of quinone pigment produced in the presence of hydrogen peroxide. The amount (μmole) of hydrogen peroxide generated per minute is calculated on the basis of molar absorptivity (5.16×10^3 M^−1 cm^−1) of quinone pigment and the resultant numerical value is taken as a unit (U) of enzyme activity.
# FAO activity of the crude enzyme solution was determined by the aforementioned rate method. The time-course of generation of hydrogen peroxide in the reaction mixture below was measured by a colorimetric method, and FAO activity was evaluated.
# A mixture (total 3 ml) except for the enzyme solution was equilibrated at 30° C. After adding the enzyme solution, the time-course of absorbance at 505 nm was measured. The amount (μmole) of hydrogen peroxide generated per minute was calculated on the basis of molar absorptivity (5.16×10^3 M^−1 cm^−1) of quinone pigment produced, and the resultant numerical value was taken as a unit(U) of enzyme activity. […]
# The substrate specificity of the enzymes (FAO-Q1, FAO-Q2) contained in 2 fractions separated in (1), 3) above was determined. […]
substance,measurement,setting,value
fructosyl valine-leucine (VL) [FVL],Activity of FAO-Q1 on the substrate (in words),,active
same,Relative activity (%) FAO-Q1,"activity of FAO-Q1 on the substrate, FV = 100",1.1%
